Patent US11624022B2, “Preparation method for the plant-based nano corrosion inhibition bactericide for oilfield and application thereof” (Southwest Petroleum University, priority 2021, dated 2023)

Test: Corrosion inhibition performance test (static uniform corrosion, SY/T 5273-2014)
Settings: 60 mg/L; N80 steel, corrosive solution pH 6.5, 37° C., 14 days; blank 0.3254
Protocol: The corrosive solution of 1 L was prepared, the pH was adjusted to 6.5, and the temperature was 37° C. at a normal pressure. The N80 steel specimens were processed with specifications of 30*15*3 and placed in corrosive solution. Three specimens were placed in each vial and different corrosion inhibitors were added respectively. The experiment lasted for 14 days.
After the test, the specimens were cleaned with stripping solution (100 ml hydrochloric acid+10 g hexamethylenetetramine+900 mL deionized water), then dehydrated by ethanol and blow-dried with N2. The determination method for static uniform corrosion inhibition rate was evaluated with referring to the Performance Index and Evaluation Method of Corrosion Inhibitor for Oilfield Produced Water Treatment (SY/T 5273-2014), the oil and gas industry standard of the People's Republic of China. The formulas of uniform corrosion rate and corrosion inhibition efficiency are as follows:
The corrosion inhibition test results are shown in Table 3, in which the corrosion inhibitors 1, 2 and 3 commonly used in oilfields are respectively the lauric acid imidazoline, abietic acid imidazoline and tetradecyl trimethyl ammonium bromide.

| Compound | Corrosion rate [mm/a] |
| --- | --- |
| lauric acid imidazoline | 0.0218 |
| abietic acid imidazoline | 0.0198 |
| CCCCCCCCCCCCCC[N+](C)(C)C.[Br-] [Tetradecyl trimethyl ammonium bromide, tetradecyl trimethyl ammonium bromide] | 0.0295 |
